PubChem BioAssay AID1259414 | Drosophila RNAi Screening Center, 2018

Test: 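Fly genes that alter Wolbachia amount inside host cells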 (primary screen)
Cells: Drosophila JW18 cells infected with Wolbachia
Reagents: long dsRNA against Drosophila genes, 0.25 µg dsRNA per well of a 384-well plate
Timing: 5 days
Conditions: cells persistently infected with Wolbachia before knock-down; no added drug
Measured: 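Imaged fluorescence in situ signal for Wolbachia 23S rRNA per DAPI-counted host cell, given as a robust z-score within each plate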
Direction: Wolbachia per cell robust z: higher = more Wolbachia per host cell than the plate typical
Hit rule: 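Active if absolute robust z reaches 1.5 in two or more of three replicates, leaving out multi- or no-target dsRNAs, genes unexpressed in JW18 and A1 wells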
In all, the deposit lists about 24,000 reagents; this is an unselected part of those with a known target gene and a result. Over the whole deposit, about 1,210 (5%) are marked active. 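Inactive calls also include excluded dsRNAs with several or no targets, genes unexpressed in JW18, and well A1, regardless of score.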 Names joined by + are all predicted targets of the reagent. No sequences are given here.

| Target gene | DRSC id | Wolbachia per cell robust z, rep 1 | Wolbachia per cell robust z, rep 2 | Wolbachia per cell robust z, rep 3 | Outcome |
| --- | --- | --- | --- | --- | --- |
| twf (twinfilin) | DRSC15466 | 0.9 | 0.519 | -0.476 | inactive |
| CG10005 | DRSC14172 | 0.0293 | -6.71 | 1.66 | inactive |
| arx (asterix) | DRSC10386 | 0.711 | -5.95 | 0.14 | inactive |
| mat (materazzi) | DRSC08376 | 0.169 | 0.128 | -0.969 | inactive |
| mat (materazzi) | DRSC22841 | -0.255 | -1.07 | -0.00597 | inactive |
| mat (materazzi) | DRSC27210 | -0.276 | 0.918 | 0.107 | inactive |
| Pex11c (Peroxin 11c) | DRSC14677 | -0.613 | -2.39 | -0.53 | inactive |
| CG14669 | DRSC12255 | -0.449 | 0.967 | 0.0143 | inactive |
| CG14669 | DRSC26823 | 0.0528 | -0.438 | -0.6 | inactive |
| CG33228 | DRSC38636 | 1.06 | 0.0298 | 0.217 | inactive |
| CG42382 | DRSC07671 | 1.31 | -4.17 | 0.317 | inactive |
| Tap42 (Two A-associated protein of 42kDa) | DRSC02967 | 0.636 | -0.0645 | 0.36 | inactive |
| Tap42 (Two A-associated protein of 42kDa) | DRSC24168 | 0.174 | 0.559 | 0.451 | inactive |
| CG4017 | DRSC02733 | -1.5 | 0.924 | 0.39 | inactive |
| Hsc70-2 (Heat shock protein 70 cognate 2) | DRSC16710 | -0.329 | 0.503 | -0.0453 | inactive |
| Hsc70-2 (Heat shock protein 70 cognate 2) | DRSC28457 | 1.3 | 2.05 | 1.21 | inactive |
| CG10600 | DRSC02074 | 0.622 | 0.565 | 0.341 | inactive |
| Rpp14a + CG7950 | DRSC16353 | 0.265 | -0.0936 | 0.821 | inactive |
| Rpp14a + CG7950 | DRSC28664 | 0.478 | -1.24 | 1.14 | inactive |
| Np (Notopleural) | DRSC06089 | -0.681 | -0.291 | -0.387 | inactive |
| Np (Notopleural) | DRSC24989 | -1.76 | -2.02 | -1.34 | inactive |
| Slc25A46a | DRSC20125 | 0.113 | 0.274 | 0.0541 | inactive |
| eIF3a (eukaryotic translation initiation factor 3 subunit a) | DRSC12339 | 1.55 | 0.0819 | 1.25 | inactive |
| eIF3a (eukaryotic translation initiation factor 3 subunit a) | DRSC28481 | 0.594 | 3.8 | 1.9 | active |
| CG6414 | DRSC18401 | 0.561 | -1.35 | 0.62 | inactive |

Next part; the last 5 above are carried over.
| Target gene | DRSC id | Wolbachia per cell robust z, rep 1 | Wolbachia per cell robust z, rep 2 | Wolbachia per cell robust z, rep 3 | Outcome |
| --- | --- | --- | --- | --- | --- |
| Np (Notopleural) | DRSC24989 | -1.76 | -2.02 | -1.34 | inactive |
| Slc25A46a | DRSC20125 | 0.113 | 0.274 | 0.0541 | inactive |
| eIF3a (eukaryotic translation initiation factor 3 subunit a) | DRSC12339 | 1.55 | 0.0819 | 1.25 | inactive |
| eIF3a (eukaryotic translation initiation factor 3 subunit a) | DRSC28481 | 0.594 | 3.8 | 1.9 | active |
| CG6414 | DRSC18401 | 0.561 | -1.35 | 0.62 | inactive |
| Atox1 (Antioxidant 1 copper chaperone) | DRSC22416 | 0.141 | 0.136 | 0.732 | inactive |
| CG32017 | DRSC17183 | -8.41 | -8.4 | 0.242 | active |
| Rubicon | DRSC17889 | 0.113 | -0.0706 | 0.141 | inactive |
| Rubicon | DRSC25992 | -1.84 | 1.02 | 0.136 | inactive |
| CG13501 | DRSC04146 | 0.395 | 0.622 | 0.298 | inactive |
| conv (convoluted) | DRSC07213 | 0.0783 | 1.28 | -2.14 | inactive |
| CG31343 | DRSC15887 | 0.41 | 0 | 0.237 | inactive |
| Xpd (Xeroderma pigmentosum D) | DRSC04666 | 1.13 | -0.0297 | -3.33 | inactive |
| Xpd (Xeroderma pigmentosum D) | DRSC27757 | 0.476 | -0.426 | -0.397 | inactive |
| CG11037 | DRSC11631 | -1.97 | 0.317 | -5.26 | inactive |
| CG10175 | DRSC13628 | 0.0652 | -0.638 | 0.0515 | inactive |
| CG10175 | DRSC14200 | -4.76 | 0.597 | 1.19 | inactive |
| CG10175 | DRSC21981 | -2.44 | -0.219 | -0.116 | inactive |
| CG6409 | DRSC10630 | 0.81 | 0.497 | 0.482 | inactive |
| CG6409 | DRSC22330 | -1.17 | -0.0153 | -1.09 | inactive |
| CG6409 | DRSC27637 | 0.406 | 1.29 | -0.53 | inactive |
| CG10660 | DRSC09769 | 1.1 | 0.825 | 1.52 | inactive |
| CG10660 | DRSC29040 | 0.49 | -0.343 | 0.604 | inactive |
| CG9449 | DRSC11073 | -0.676 | 0.948 | 0.851 | inactive |
| CG9449 | DRSC25691 | 0.572 | 0.0587 | 1.96 | inactive |
| CG9449 | DRSC41606 | 1.8 | 0.463 | -0.813 | inactive |
| Asator | DRSC17136 | -0.32 | -2.56 | -2.56 | active |
| CG13361 | DRSC17896 | -0.631 | 0.276 | 0.428 | inactive |
| CG13361 | DRSC29728 | -1.41 | 0.924 | 0.0553 | inactive |
| Noa36 | DRSC16761 | -0.804 | 1.07 | -0.691 | inactive |
| CG12684 | DRSC17875 | 0.232 | -0.97 | -0.233 | inactive |
| CG1638 | DRSC15132 | 1.58 | -0.682 | -0.106 | inactive |
| CG1638 | DRSC29986 | 0.388 | 0.824 | 0.546 | inactive |
| CG17739 | DRSC06689 | -8.07 | 0.518 | 0.332 | inactive |
| CG17739 | DRSC26518 | 0.951 | -0.141 | -0.459 | inactive |
| CG34345 | DRSC02126 | 0.764 | 0.158 | -0.765 | inactive |
| CG34345 | DRSC37753 | -0.404 | 0.0536 | 3.48 | inactive |
| lncRNA:Hsromega (Heat shock RNA omega) | DRSC22875 | -0.318 | -1.15 | -0.31 | inactive |
| lncRNA:Hsromega (Heat shock RNA omega) | DRSC26039 | 0.016 | 0.512 | 0.519 | inactive |
| CG13001 | DRSC24970 | -0.99 | 1.36 | -1.08 | inactive |
| CG5913 | DRSC15916 | 0.912 | 0.39 | 0.155 | inactive |
| RpS19a (Ribosomal protein S19a) | DRSC20281 | 3.81 | 2.57 | 3.93 | active |
| Su(var)205 (Suppressor of variegation 205) | DRSC03446 | -4.7 | -0.606 | -1.91 | active |
| Su(var)205 (Suppressor of variegation 205) | DRSC40702 | 0.526 | -0.32 | 0.558 | inactive |
| Lcp9 (Larval cuticle protein 9) | DRSC04287 | 0.413 | 0.358 | 0.554 | inactive |
| mge (maggie) | DRSC08721 | 0.337 | 1.11 | 1.1 | inactive |
| tum (tumbleweed) | DRSC07575 | -0.381 | 1.55 | 1.09 | inactive |
| CG30160 + Tsp42Eb | DRSC06791 | -0.332 | 0.438 | 0.0662 | inactive |
